{"source": "patent US20150031020", "target": "α-HL M113R/N139Q (HL-RQ) monomer, Staphylococcus aureus", "data": [{"substance": "HL-RQC-EcoExoIII-L1-H6", "values": [{"measurement": "result", "value": "binds"}]}]}
